Measurements: article PMC4703387, “Identification of the Calmodulin-Binding Domains of Fas Death Receptor” (PLoS ONE, 2016)

System: subtilisin
Assay: Proteolysis assay with subtilisin, 24 h
Set-up: species or system Bacillus licheniformis

B1: FasDD: intracellular death domain of Fas (protein)
chain: SKYITTIAGVMTLSQVKGFVRKNGVNEAKIDEIKNDNVQDTAEQKVQLLRNWHQLHGKKEAYDTLIKDLKKANLCTLAEKIQTII
B1 was tested, and the “stability to subtilisin, in 2:1 Ca^2+/CaM:FasDD complex” value (subtilisin 1:500 (enzyme:complex), 4°C, pH 7.0, SDS-PAGE) was “cleaved to fragment(s) of ~5 kDa” and the “stability to subtilisin, unbound” value (subtilisin 1:500, 4°C, 50 mM HEPES (pH 7.0), 50 mM NaCl, 5 mM CaCl2, SDS-PAGE) was “resistant to proteolysis by subtilisin”.
